## In-gel DMS probing of monomeric and dimeric HIV-1 RNA

RNA: 5' end of the HIV-1 NL4-3 genome, made in vitro. Positions 1-437 read:
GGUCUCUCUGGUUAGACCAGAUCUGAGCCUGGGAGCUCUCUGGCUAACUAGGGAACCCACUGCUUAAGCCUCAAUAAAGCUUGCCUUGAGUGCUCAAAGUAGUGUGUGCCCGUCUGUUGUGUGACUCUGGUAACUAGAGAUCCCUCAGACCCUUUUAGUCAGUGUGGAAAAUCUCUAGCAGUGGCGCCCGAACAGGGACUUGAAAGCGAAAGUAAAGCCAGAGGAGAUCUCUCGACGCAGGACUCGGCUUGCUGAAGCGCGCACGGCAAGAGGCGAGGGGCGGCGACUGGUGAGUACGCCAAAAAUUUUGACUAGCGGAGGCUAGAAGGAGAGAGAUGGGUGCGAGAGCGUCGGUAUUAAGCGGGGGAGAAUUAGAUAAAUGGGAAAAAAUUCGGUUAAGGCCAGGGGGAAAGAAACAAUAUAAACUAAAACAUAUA

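Mutant RNA libraries with 1G, 2G or 3G starts, with or without cap, were folded at 37 °C for 30 min. High salt was 300 mM KCl and 5 mM MgCl2, low salt 40 mM KCl and 0.1 mM MgCl2; monomer and dimer were parted on a native gel. Each band was probed in the gel with DMS (170 mM, 15 min, 37 °C), with ethanol as control, and sequenced.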

Values are winsor-normalised DMS reactivities of A and C; higher means more reactive, usually unpaired.
Sample: 2G uncapped high-salt monomer.
One numbering serves 1G, 2G and 3G.
A position is written with its base.

position	2G uncapped high-salt monomer
A271	0.57
C274	0.60
A276	0.98
C281	0.37
C284	0.21
A286	0.57
C287	0.31
A293	0.83
A296	0.63
C297	0.17
C299	0.07
C300	0.10
A301	0.23
A302	1.11
A303	0.09
A304	0.22
A305	0.71
A311	1.32
C312	0.10
A314	0.04
C316	0.11
A319	0.95
C322	0.03
A324	0.11
A326	0.91
A327	1.02
A330	0.90
A332	0.62
A334	0.53
A336	0.87
C343	0.44
A345	1.30
A347	0.34
C349	0.37
C352	0.36
A356	0.95
A359	0.56
A360	0.53
C362	0.40
A368	0.88
A370	0.55
A371	0.91
A374	0.53
A376	0.78
A378	0.23
A379	0.59
A380	0.85
A385	0.52
A386	1.24
A387	0.25
A388	0.10
A389	0.23
A390	0.92
C393	0.64
A398	0.23
A399	0.26
C402	0.03
C403	0.03
A404	0.23
A410	0.47
A411	0.85
A412	0.52
A414	0.49
A415	0.25
A416	0.48
C417	0.82
A418	0.66
A419	0.48
A421	0.38
A423	0.46
A424	0.42
A425	0.52
C426	0.72
A428	0.10
A429	0.72
A430	0.62
A431	0.65
C432	0.91
A433	0.73
A435	0.52
A437	0.03

Excerpt, the final 11 entries:

| position | 2G uncapped high-salt monomer |
|---|---|
| A424 | 0.42 |
| A425 | 0.52 |
| C426 | 0.72 |
| A428 | 0.10 |
| A429 | 0.72 |
| A430 | 0.62 |
| A431 | 0.65 |
| C432 | 0.91 |
| A433 | 0.73 |
| A435 | 0.52 |
| A437 | 0.03 |

From the data files of Ye et al. 2022, doi:10.1038/s41594-022-00746-2.